This note sets out measurements from paper PMC9696605.

Assay [1] deals with HLA-C1 in 721.221-ICP47-C1 cells. The experiment in a line: HLA-C1 surface expression (stabilization) in 721.221-ICP47-C1 cells. Format: cell-based, human. Conditions: 721.221-ICP47-C1 cells incubated overnight at 26 °C with peptide, gMFI, Figure 5a; pU24-6A p: 0.0012, pc: 0.004.
Assay [2] has as its system KIR2DL2 positive NK cells vs 721.221-ICP47-C1 cells. Put plainly: CAM cytotoxicity assay, 721.221-ICP47-C1 targets. Conditions: NK cells from MS patients, 4 h, 26 °C, Figure 5c, MBP, pU24-6B, U24-7 p < 0.001, pU24-6A p: NS (Fisher exact test).

`CSCC[C@H](NC(=O)[C@@H](NC(=O)[C@H](CC(=O)O)NC(=O)[C@H](CC(N)=O)NC(=O)[C@H](Cc1ccc(O)cc1)NC(=O)[C@H](CO)NC(=O)[C@@H]1CCCN1C(=O)[C@@H]1CCCN1C(=O)[C@@H]1CCCN1C(=O)[C@@H](NC(=O)[C@H](CCC(=O)O)NC(=O)[C@H](Cc1c[nH]cn1)NC(=O)[C@@H](NC(=O)[C@@H](N)CCSC)[C@@H](C)O)[C@@H](C)O)C(C)C)C(=O)N[C@@H](CC(C)C)C(=O)O`: the “HLA-C1 expression / stabilization” value in assay [1] is “lower binding affinity for HLA-C1”. In addition, in assay [2], the “Killing of 721.221-ICP47-C1 cells by KIR2DL2 positive NK cells” value is “induced 721.221-ICP47-C1 cell killing”.
